Results from the supplement of paper PMC9931576.
Human monoclonal antibodies against the spike receptor-binding domain (heavy:light variable regions). IC50 against pseudoviruses bearing the spike of naturally observed variants; lower = stronger; >10 µg/ml means not reached at the top dose. No active / inactive call. The stated detection limit is 0.0005 µg/ml; values near or below 0.001 µg/ml lie at the floor of the assay.

Experiments:
Test in all cases: pseudovirus neutralization IC50; higher = weaker neutralization
[1] = target: SARS-CoV-2 Omicron BA.1 spike pseudovirus
Method: (§1)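 Single-round VSV luciferase pseudovirus mixed with antibody dilutions for 1 h and put on Huh-7 cells for about a day; IC50 from the dose curve.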

[2] = target: SARS-CoV-2 Omicron BA.2 spike pseudovirus
Method: as §1

[3] = target: SARS-CoV-2 Omicron BA.2.75 spike pseudovirus
Method: as §1

[4] = target: SARS-CoV-2 Omicron BA.5 spike pseudovirus
Method: as §1

[5] = target: SARS-CoV-2 Omicron BQ.1.1 spike pseudovirus
Method: as §1

[6] = target: SARS-CoV-2 Omicron XBB spike pseudovirus
Method: as §1

[7] = target: SARS-CoV-2 early D614G spike pseudovirus
Method: as §1

Binder	pseudovirus neutralization IC50 [1] [µg/mL]	pseudovirus neutralization IC50 [2] [µg/mL]	pseudovirus neutralization IC50 [3] [µg/mL]	pseudovirus neutralization IC50 [4] [µg/mL]	pseudovirus neutralization IC50 [5] [µg/mL]	pseudovirus neutralization IC50 [6] [µg/mL]	pseudovirus neutralization IC50 [7] [µg/mL]
BD55-3161 (protein) chain 1: QVQLVQSGGEVKKPGSSVKVSCKVSGDTFSNYAISWVRQAPGQGLEWMGRIIPSIGLGNQAQQFQGRLSITADKSTRTVYMDLRSLRSEDTALYYCARDERVDDDANAYYPGGWYLDYWGQGTLVTVSS chain 2: DIVMTQSPDSLAVSLGERATINCKSSQSVVYSSNNKNYLAWYQQKPGQPPKLLISWASTRESGVPDRFSGSGSGTDFTLTISSLQAEDVAVYYCQQYYDTPLTFGPGTKVDIK	> 10	> 10	> 10	> 10	> 10	> 10	> 10
BD57-0405 (protein) chain 1: QVQLVQSGSELKKPGASVTVSCKAPGYTFRTFSIHWVRQAPGQGLEWMGWINTNTGKPTYAQGFTGRFVFSLDTSVSTAYVQINSLKFDDTAVYYCATVGDVGLGWFDPWGQGTLVTVSS chain 2: SYVLTQPPSVSVAPGKTATIPCGGNNIGTKSVHWYQQKPGQAPVLVIYYDSDRPSGIPERFSGSNSGNTATLTISRVEAGDEADYYCQVWDSSRDHPVFGTGTKVSVL	0.208	0.262	0.178	0.181	> 10	> 10	0.111
BD55-3150 (protein) chain 1: QITLKESGPTLVQPTQTLTLTCSFSGFSLSTRGEGVGWVRQPPGKALDWLAVLYWDDDTRYSPSLRNRITVTKVTSKNQVILRMTNMDPLDTATYFCVRSFTPRVSFDHWFDPWGQGTLVTVSS chain 2: QSVVTQPPSMSGAPRQRVTISCSGSSSNIGHNAVTWYQQFPGKAPRLLIYNDDMKPSGVSDRFSGSRSGTSASLAISGLQSEDEADYYCATWDDSLNGLVFGGGTKLTVL	> 10	> 10	> 10	> 10	> 10	> 10	> 10
BD55-3367 (protein) chain 1: EVQLVESGGGLVQPGGSLRLSCAASGFTFSNYAMHWVRQAPGKGLEYVSSITSDGRGAFYANSLQGRVTISRDNSQKMLYLQMGGLRGEDVAVYYCAREGSTVISHYLDYWGQGTQVTVSS chain 2: DIQMTQSPSSLSASVGDRVTITCRASQSISTYLNWYQQKPGKAPRLLIYAASSLQSGVPSRFSGSGSGTDFTLTISSLQPEDFATYYCQQSYVTPEYTFGQGTKLEIK	> 10	> 10	> 10	> 10	> 10	> 10	> 10
BD55-3293 (protein) chain 1: EVQLVESGGDLVQPGGSLRLSCAASGFTFSDYVMQWVRQAPGKGPEHISSISSIGDYTYYADSVQGRFTISRDNSKNTVYLQMRSLRPEDTAVYYCVKDHGRQLVQEVFDYWGQGTLVTVSS chain 2: DIQMTQSPSSLSASVGDRVIITCRASQTISTYLNWYQQAPGKAPKLLIYNVSTLKSGVPSRFSGSGSGTDFTLTISRLQPEDFASYYCQQSYTTPFTFGQGTKLEVK	> 10	> 10	> 10	> 10	> 10	> 10	7.2
BD55-2101 (protein) chain 1: DVLLVESGGGLVKPGGSLRLSCVASGFPFESYSMNWVRQAPGKGLEWVSSISGDGTLRFYLDSLKGRISISRDNAKNSLYLQLNGLTVDDTAVYYCVREVGTTLTALDYWGPGTLVTVSS chain 2: DIQLTQSPSSLSASVGDRVTITCRPSQTIGNYLNWYQQKPGKAPKLLIFAASSLQSGVPSRFSGSGSGTDFTLTISSLQPEDFATYYCQQSYVSPEWTFGPGTKVEVK	> 10	> 10	> 10	> 10	> 10	> 10	> 10
BD57-0404 (protein) chain 1: QVQLVQSGTAVKRPGASVRVSCRASGYTFTDFYMHWVRQAPGRGLEWMGIINPSGVGTTYAQKFQDRVSMTTDTSTSTVYMVLSSLISDDTAMYYCARGAGIVPTIRYLDYWGQGTLVTVSA chain 2: DIVMTQSPDSLAVSLGERATINCKSTQSVLYSSSKKNYLAWYQQKAGQPPKLLISWSSTRESGVPDRFSGSGSGTDFTLTISSLQAEDAAVYYCQQYLSTPLTFGQGTKVEIK	> 10	> 10	> 10	> 10	> 10	> 10	> 10
BD55-3414 (protein) chain 1: QVQLQESGPGLVKPSQTLSLTCTVSGGSISRGDYYWSWIRQYPGKGLEWIGYISHSGSTHYNPSLKSRVTISLDTSKNLLSLKVTSVTAADTAVYYCAREEGDRRYTGADAYDIWGPGTMVTVSA chain 2: QSVLTQPPSVSGAPGQRVTISCAGSSSNIGAGYAVHWYQQLPRTAPKLLIYGDTNRPSGVPDRFSGSKSGTSASLAITGLQAEDEADYYCQSYDSSLNSWVVFGGGTKLTVL	> 10	> 10	> 10	> 10	> 10	> 10	6.46
BD55-3417 (protein) chain 1: QVQVVQSGAEVKKPGDSVRVSCKTSGYTFTSHDINWVRQAPGQGLEWVGWISPYNGNTNHAQKFQGRVTMATDTSTSTAYMELRSLRSDDTAVYYCARAAEGVYWGWYFDLWGRGTPVTVSS chain 2: EIVMTQSPATLSVSPGDRATLSCRASQSVSSDLAWYQQKPGQAPRLLIYGASTRASGVPARFSGSGSGTEFTLTISSLQSEDFAVYYCQQYNNWPPLYTFGQGTKLEIK	> 10	> 10	> 10	> 10	> 10	> 10	> 10
BD55-2532 (protein) chain 1: QVQLVQSGSELKKPGASVKVSCKASGYTFSGYAMNWVRQAPGQGLEWMGWINTDSGNPTYAQGITGRFVFSLDTSINTAYLQISSLKAEDTAVYYCATGRVGATSANYFYFYFGLDVWGQGTTLTVSS chain 2: SSELTQPPSVSVSPGQTARITCSGDALTNQYAYWYQQKPGQAPVLLMYQDFERPSGIPERFSGSNSGTTVTLTISGVQAEDEADYYCQSADSSATYVVFGGGTKLTVL	0.171	0.317	0.305	0.865	> 10	> 10	0.0104
BD55-3324 (protein) chain 1: EVQLVESGGGLVQPGGSLRLSCAASGFIFSNYAMHWVRQAPGKGLEYVSSITSSGVGGFYAESVKGRFTISRDNSKNTLFLQMGSLTPEDTAVYYCAREGTGVLELYFDFWGPGSLVTVSS chain 2: DIQMTQSPSSLSASVGDKVTISCRASQSIRTNLNWYQLKPGKAPKLLIYSTSTLQSGVPSRFSGRGSGTDFTLTITSLQPEDFATYFCQQSYTTPEYTFGQGTKLEVK	> 10	> 10	> 10	> 10	> 10	> 10	> 10
BD55-3366 (protein) chain 1: QVQLVESGGGVVQPGRSLRLSCAASGFTFSSSVMHWVRQAPGKGLEWVAFVSSDGVNRYHADSVKGRFTISRDNSRNTVYLQMNSLRPEDTALYFCAREGWDPLACFFDAWGQGTLVTVSS chain 2: DIVMTQSPDSLAVSLGERATINCKSSQSIYSSNNKNYLAWYQQKPGQPPKLLIFWASTRESGVPDRFSGSGSGTDFTLTINSLQAEDVAVYFCQQYYVTPQVTFGQGTRLEIK	> 10	> 10	> 10	> 10	> 10	> 10	> 10
